Measured values from several laboratories, pooled; numbers as filed in NIAID ChemDB.

Shared fields: host cell toxicity; endpoint: CC50

CCn is the concentration with n% toxicity to the cells. Blank or dashed fields: not listed here. Conditions beyond the fields shown may differ between rows.

structure,cell line,conditions,method,result
Nc1nc2c(ncn2/C=C2/CC2(CO)CO)c(=O)[nH]1,HeLaP4,-,-,0.061 µM
O=C(O)P(=O)(O)O,U138-MG,-,-,>400 µg/mL
Fc1ccccc1Cn1cc(/C=N/Nc2nncs2)c2ccccc21,Fibroblast L929 cell line,24 h,MTT,>100 µg/mL
Nc1nccc2c1ncn2[C@@H]1C[C@H](CO)[C@@H](O)[C@H]1O,PRK,-,-,17 µg/mL
CCCCCCCCCCCCCCCC[N+](C)(C)Cc1ccccc1,HUVEC,-,MTT,7.5 µM
OCCN1CCN(CCCN2c3ccccc3Sc3ccc(C(F)(F)F)cc32)CC1,n4mBid,-,luminescence,17 µM
O[C@@H]1[C@@H](O)[C@@H](O)CN2CC[C@H](O)[C@@H]12,Karpas 45 cells,-,-,>500 µg/mL
COC(=O)[C@H]1[C@@H]2CON=C2c2cc3c(cc2[C@H]1C1=CC(=O)C(=O)C(OC)=C1)OCO3,P-388,-,-,12 µM
Nc1nc(NC2CC2)cc(OCCOCP(=O)(O)O)n1,L1210,-,-,<10 µM
O=C(Cc1ccc(C(F)(F)F)cc1)NC1N=C(c2ccccc2)c2ccccc2NC1=O,VERO,-,-,1.5 µM
Nc1nc(Cl)cc2c1ncn2[C@@H]1O[C@H](CO)C[C@H]1O,Sheep chondrocytes G81092,-,-,>400 µM
COc1cc([C@@H]2c3cc4c(cc3[C@H](OC(C)=O)[C@@H]3COC(=O)[C@H]23)OCO4)cc2c1OCO2,HT-29,-,-,2.27 µM
Nc1ncnc2c1ncn2[C@@H]1O[C@H](CO)C[C@@H]1O,U87MG,-,-,50 µg/mL
COc1ccc(Cn2cc(/C=N/Nc3nncs3)c3ccccc32)cc1,Fibroblast L929 cell line,24 h,MTT,>100 µg/mL
O=c1[nH]c(=O)n([C@H]2C[C@H](O)[C@@H](CO)O2)cc1/C=C/Br,HSB-2,-,MTT,3.5 µM
O=C1C[C@@H](c2ccc(O)cc2)Oc2cc(O)c(-c3c(O)cc4c(c3O)C(=O)C[C@@H](c3ccc(O)cc3)O4)c(O)c21,MA-104,-,visual reading,~22 µg/mL
OC[C@@H]1C[C@@H](O)[C@H](n2cnc3c(NC4CCCCC4)nc(Cl)cc32)O1,Sheep chondrocytes G81092,-,MTT,270 µM
COc1cccc(C2(c3ccccc3)NC(NC(=O)C(C)C)C(=O)Nc3ccccc32)c1,HEP-2,-,-,5 µM
Cc1nc2sccn2c(=O)c1CCN1CCC(=C(c2ccc(F)cc2)c2ccc(F)cc2)CC1,n4mBid,-,luminescence,17 µM
Nc1ccn(C[C@@H](CO)OCP(=O)(O)O)c(=O)n1,CBMC,-,MTT,181 µM
CCCCCCCCCCCCCCCCOP(=O)([O-])OCCC[N+](C)(C)C,HUVEC,-,MTT,>100 µM
Nc1cc(OCCOCP(=O)(O)O)nc(N)n1,L929,-,-,<10 µM
OC[C@H]1O[C@@H](n2cnc3c(NC4CC4)cc(Cl)nc32)C[C@@H]1O,Sheep chondrocytes G81092,-,MTT,236 µM
Nc1nc(=O)n([C@@H]2CC[C@H](CO)O2)cc1F,BFU-E,-,-,10 µM
CC1C(=O)N(O)c2ncc(Br)cc2C1O,HepDES19,7 d,MTS,37.7 µM
CC[C@@]1(O)C(=O)OCc2c1cc1n(c2=O)Cc2cc3ccccc3nc2-1,MDA-MB-231,-,MTT,0.759 µg/mL
Nc1ccn([C@@H]2CC[C@H](CO)O2)c(=O)n1,2.2.15,-,-,>20 µM
C[C@@H]1NC(=O)[C@@H](O)[C@H](O)[C@@H]1O,Karpas 45 cells,-,-,>100 µg/mL
C(=N\Nc1nncs1)/c1c[nH]c2ccccc12,Fibroblast L929 cell line,24 h,MTT,62.68 µg/mL
CCN(C)CCNc1ncnc2c1ncn2C[C@H](C)OCP(=O)(O)O,P3HR-1,-,-,5.6 µg/mL
CCCCCCCCCCCCCCCCOCC(O)CO,J774A.1 macrophages,-,resazurin,>200 µg/mL
CN1CC[C@H](c2c(O)cc(O)c3c(=O)cc(-c4ccccc4Cl)oc23)[C@H](O)C1,PM1,-,MTT,>0.05 µM
O=c1cc(-c2ccc(O)c(-c3c(O)cc(O)c4c(=O)cc(-c5ccc(O)cc5)oc34)c2)oc2cc(O)cc(O)c12,MA-104,-,visual reading,~56 µg/mL
COc1cc([C@@H]2c3cc4c(cc3[C@H](OC(C)=O)[C@@H]3COC(=O)[C@H]23)OCO4)cc(OC)c1O,MEL-28,-,-,0.23 µM
O=c1cc(-c2ccc(Oc3c(O)cc4oc(-c5ccc(O)cc5)cc(=O)c4c3O)cc2)oc2cc(O)cc(O)c12,MDCK,-,visual reading,1.3 µg/mL
CCCCCCCCCCCCCCCCOP(=O)([O-])OCC[n+]1ccccc1,MDA,-,MTT,45.8 µM
Nc1cc(Cl)nc2c1ncn2[C@H]1C[C@H](O)[C@@H](CO)O1,Sheep chondrocytes G81092,-,MTT,>400 µM
CCCCc1oc2ccccc2c1C(=O)c1cc(I)c(OCCN(CC)CC)c(I)c1,n4mBid,-,luminescence,14 µM
OC[C@@H]1CC[C@H](n2cnc3c(NC4CC4)ncnc32)O1,MDBK,-,-,>400 µM
CCCCCCCCCCCCCCCCOP(=O)([O-])OCCC[n+]1ccccc1,HUVEC,-,MTT,>100 µM
Nc1nc(Cl)nc2c1ncn2[C@H]1C[C@H](O)[C@@H](CO)O1,MDBK,-,-,<50 µM
O=c1[nH]cnc2c1ncn2[C@H]1CC[C@@H](CO)O1,HELA-CD4+,-,-,1.9 µM
COc1cccc(NC(=O)NC2N=C(c3ccccc3)c3ccccc3NC2=O)c1,HEP-2,-,-,4.9 µM
Nc1nc(OCCOCP(=O)(O)O)cc(=O)[nH]1,HeLa S3,-,-,<10 µM
CCOC(=O)c1cnc2c(cnn2CC)c1NN=C(C)C,n4mBid,-,luminescence,>60 µM
COC1=CC([C@@H]2c3cc4c(cc3[C@H](OC(C)=O)[C@@H]3COC(=O)[C@H]32)OCO4)=CC(=O)C1=O,HT-29,-,-,0.59 µM
Cc1cn([C@H]2C[C@H](N=[N+]=[N-])[C@@H](CO)O2)c(=O)[nH]c1=O,P3HR-1,-,-,53 µg/mL
O=c1[nH]c(=O)n([C@@H]2O[C@H](CO)[C@@H](O)[C@@H]2O)cc1/C=C/Br,HSB-2,-,MTT,232 µM
COC(=O)[C@@H]1[C@H](c2cc(OC)c3nc4cc(Cl)c(Cl)cc4nc3c2)c2cc3c(cc2C2=NOC[C@@H]21)OCO3,P-388,-,-,>18 µM
Nc1ncnc2c1ncn2C[C@H]1COP(=O)(O)CO1,CBMC,-,MTT,77 µM
Nc1nccc2c1ncn2[C@@H]1C=C(CO)[C@@H](O)[C@H]1O,MA-104,-,-,400 µg/mL
CC[C@H](NC(=O)c1c(C)c(-c2ccccc2)nc2ccccc12)c1ccccc1,n4mBid,-,luminescence,>30 µM
OC[C@H]1NC[C@H](O)[C@@H](O)[C@@H]1O,Karpas 45 cells,-,-,>500 µg/mL
C[C@H](Cn1cnc2nc(N)nc(N(C)C)c21)OCP(=O)(O)O,P3HR-1,-,-,5.5 µg/mL
CC(=O)N[C@H]1CN[C@H](CO)[C@H](O)[C@@H]1O,Karpas 45 cells,-,-,>190 µg/mL
CO[C@@H]1C2=CC(O)C(O)C=C2O[C@@]2(C)CC[C@H]3C(C)(C)CCC[C@]3(C)[C@@H]12,J774A.1 macrophages,-,resazurin,8 µg/mL
O[C@@H]1[C@@H](O)[C@@H](O)CN2CC[C@@H](O)[C@@H]12,Karpas 45 cells,-,-,>500 µg/mL
OC[C@H]1O[C@@H](n2cnc3c(NC4CCCCCC4)nc(Cl)nc32)CC1O,MDBK,-,-,130 µM
O=C(NC1N=C(c2ccccc2)c2ccccc2NC1=O)c1cnccn1,HEP-2,-,-,2 µM
C(=N\Nc1nncs1)/c1cn(Cc2ccccc2)c2ccccc12,Fibroblast L929 cell line,24 h,MTT,>100 µg/mL
C[C@H]1[C@@H](O)[C@@H](O)[C@H](O)CN1C,Karpas 45 cells,-,-,>100 µg/mL
Cc1cc(=O)n(CCOCP(=O)(O)O)c(N)n1,L1210,-,-,<10 µM
O=P(O)(O)COCCn1cnc2c(NC3CC3)ncnc21,P3HR-1,-,-,>100 µg/mL
CCOC(=O)NC1N=C(c2ccccc2)c2ccccc2NC1=O,HEP-2,-,-,10 µM

Repeating the final 9 entries:

| structure | cell line | conditions | method | result |
|---|---|---|---|---|
| CO[C@@H]1C2=CC(O)C(O)C=C2O[C@@]2(C)CC[C@H]3C(C)(C)CCC[C@]3(C)[C@@H]12 | J774A.1 macrophages | - | resazurin | 8 µg/mL |
| O[C@@H]1[C@@H](O)[C@@H](O)CN2CC[C@@H](O)[C@@H]12 | Karpas 45 cells | - | - | >500 µg/mL |
| OC[C@H]1O[C@@H](n2cnc3c(NC4CCCCCC4)nc(Cl)nc32)CC1O | MDBK | - | - | 130 µM |
| O=C(NC1N=C(c2ccccc2)c2ccccc2NC1=O)c1cnccn1 | HEP-2 | - | - | 2 µM |
| C(=N\Nc1nncs1)/c1cn(Cc2ccccc2)c2ccccc12 | Fibroblast L929 cell line | 24 h | MTT | >100 µg/mL |
| C[C@H]1[C@@H](O)[C@@H](O)[C@H](O)CN1C | Karpas 45 cells | - | - | >100 µg/mL |
| Cc1cc(=O)n(CCOCP(=O)(O)O)c(N)n1 | L1210 | - | - | <10 µM |
| O=P(O)(O)COCCn1cnc2c(NC3CC3)ncnc21 | P3HR-1 | - | - | >100 µg/mL |
| CCOC(=O)NC1N=C(c2ccccc2)c2ccccc2NC1=O | HEP-2 | - | - | 10 µM |